Test results reported in paper PMC3447402, “Structural characterization and comparison of three acyl-carrier-protein synthases from pathogenic bacteria” (Acta Crystallographica Section D: Biological Crystallography, 2012).

Molecular target: the molecule itself

B1: acyl-carrier-protein synthase (AcpS) from Bacillus anthracis (enzyme)
chain: MIVGIGIDIIELNRIEKMLDGKLKFMERILTENERNVAKGLKGSRLTEFVAGRFAAKEAYSKAVGTGIGKEVSFLDIEVRNDDRGKPILITSTEHIVHLSISHSKEFAVAQVVLESSSS
modifications: selenomethionine (SeMet protein)
  stoichiometry N: 3
